A mixed list of measured activities; the numbers were collected in NIAID ChemDB.

Shared fields: whole-cell or culture tests; agent: HIV-1; measure: fold resistance

Conditions beyond the fields shown may differ between rows. Fold resistance: result on the changed form divided by that on wild type. Blank or dashed fields: not listed here.

structure | method | strain or isolate | changes | cells | result
Cc1cn([C@H]2C[C@H](N=[N+]=[N-])[C@@H](CO)O2)c(=O)[nH]c1=O | p24 | LAI | RT-D67N K70R T215Y K219Q L74V | MT-2 | 6.3
Cc1ccnc2c1NC(=O)c1cccnc1N2C1CC1 | cytopathic effect / XTT | NL4-3 (RT K103N) | RT-K103N | CEM + CEM-SS | >100
O=C(O)P(=O)(O)O | - | HXB2 | TAM2 (D67N K70R T215F K219Q) | MT-2 | 0.6
Nc1nc2c(ncn2[C@H]2CO[C@@H](CO)O2)c(=O)[nH]1 | p24 | LAI | RT-D67N K70R T215Y K219Q K65R | MT-2 | 5
Nc1ccn([C@@H]2CO[C@H](CO)S2)c(=O)n1 | p24 | HXB2 | RT-D67N K70R T215Y K219Q | C8166 | 2.27
Nc1ccn([C@H]2CC[C@@H](CO)O2)c(=O)n1 | plaque count | HXB2 | RT-V75T 184V | CD4+HELA + HeLa | 28.6
Cc1cc(CC#N)cc(C)c1Nc1ccnc(Nc2ccc(C#N)cc2)n1 | cytopathic effect / MTT | - | RT-Y188L | MT-4 | 313.7
COC(=O)NCCCC(C)(C)CN(C[C@@H](O)[C@H](Cc1ccccc1)NC(=O)O[C@H]1CO[C@H]2OCC[C@H]21)S(=O)(=O)c1ccc(N)cc1 | cytopathic effect / propidium iodide | Multi-PI-resistant EP13 | PR-M46I L63P A71V V82F/L I84V | MT-4 | 1.48
C#C[C@]1(CO)O[C@@H](n2cnc3c(N)nc(F)nc32)CC1O | β-galactosidase / absorbance | NL4-3 | M184V | MAGIC-5A | 9
CC(C)[C@H](NC(=O)c1ccc2ccccc2n1)C(=O)N[C@@H](Cc1ccccc1)[C@H](O)CN1CC[C@@H](SCc2cccnc2)C[C@H]1C(=O)NC(C)(C)C | p24 | BILA1906-resistant (PR V32I A71V) | PR-V32I A71V | C8166 | 3
Cc1cn([C@H]2C=C[C@@H](COC(=O)NCCSC(=O)OC[C@@H]3CC[C@H](n4cnc5c(=O)[nH]cnc54)O3)O2)c(=O)[nH]c1=O | cytopathic effect / MTT | EFV-resistant (RT K103R V179D P225H) | RT-K103R V179D P225H | MT-4 | >0.47
CCCCCCCCCCCCSCC(COP(=O)([O-])OCC[N+](C)(C)C)OCCCCCCCCC(=O)OCC(=O)OC[C@H]1O[C@@H](n2cc(C)c(=O)[nH]c2=O)C[C@@H]1N=[N+]=[N-] | plaque count | Clinical isolate G910-6 post-AZT | RT mutant at codon 215 | CEM + CEM-SS | 3
Cc1cn([C@H]2C=C[C@@H](CO)O2)c(=O)[nH]c1=O | β-galactosidase | NL4-3 | RT-K103N M184V | MAGI (CCR5) + MAGI | 0.8
CC(=O)NCCCC(C)(C)CN(C[C@@H](O)[C@H](Cc1ccccc1)NC(=O)O[C@H]1CO[C@H]2OCC[C@H]21)S(=O)(=O)c1ccc2c(c1)OCO2 | cytopathic effect / propidium iodide | Multi-PI-resistant EP13 | PR-M46I L63P A71V V82F/L I84V | MT-4 | 1.3
Cc1cn([C@H]2C[C@H](N=[N+]=[N-])[C@@H](COC(=O)NCCSC(=O)OC[C@@H]3CC[C@H](n4cnc5c(=O)[nH]cnc54)O3)O2)c(=O)[nH]c1=O | cytopathic effect / MTT | EFV-resistant (RT K103R V179D P225H) | RT-K103R V179D P225H | MT-4 | 0.2
COC(=O)c1cc(CN2CCCNCCNCCCNCC2)ccc1CN1CCCNCCNCCCNCC1 | cytopathic effect / MTT | NL4-3 | AMD3100-resistant | MT-4 | >30.9
Cc1cn([C@H]2C[C@H](N=[N+]=[N-])[C@@H](CO)O2)c(=O)[nH]c1=O | cytopathic effect / XTT | 22(RT-L100I Y188H) | RT-L100I Y188H | MT-4 | 0.4
C/C=C/CSc1cc(NC(=S)c2ccsc2C)ccc1Cl | cytopathic effect / XTT | Diphenyl sulfone-resistant (RT-Y181C) | RT-Y181C | CEM + CEM-SS | >10
C#C[C@@]1(CO)C=C[C@H](n2cc(C)c(=O)[nH]c2=O)O1 | β-galactosidase | NL4-3 | RT-M184V | MAGI (CCR5) + MAGI | 2.925
COC(=O)NCCCCC(C)(C)CN(C[C@@H](O)[C@H](Cc1ccccc1)NC(=O)O[C@H]1CO[C@H]2OCC[C@H]21)S(=O)(=O)c1ccc2c(c1)OCO2 | cytopathic effect / propidium iodide | Multi-PI-resistant EP13 | PR-M46I L63P A71V V82F/L I84V | MT-4 | 9.375
Cc1cccc(C)c1OCC(=O)N[C@@H](Cc1ccccc1)[C@H](O)CN1CC[C@@H](Sc2ccncc2)C[C@H]1C(=O)NC(C)(C)C | p24 | BILA2185-resistant (PR I84V) | PR-I84V | C8166 | 5.5
Nc1nc(=O)n([C@@H]2CO[C@H](CO)S2)cc1F | RT activity | HxB2D(RT-D67G) | RT-D67G | MT-4 | 4.55
O=[N+]([O-])c1cc(CN2CCCNCCNCCCNCC2)cc(CN2CCCNCCNCCCNCC2)c1 | cytopathic effect / MTT | NL4-3 | AMD3100-resistant | MT-4 | 22.4
COC(=O)N[C@H](C(=O)N[C@@H](Cc1ccccc1)[C@@H](O)CN(Cc1ccc(-c2ccccn2)cc1)NC(=O)[C@@H](NC(=O)OC)C(C)(C)C)C(C)(C)C | β-galactosidase | Site-directed PR mutant 06 | PR-I50L A71V | HeLa | 5.3
C1CNCCNCCCN(CCCN2CCCNCCNCCCNCC2)CCNC1 | p24 | NL4-3 | gp120 F145L N269E Q278H I288V N293D FNSTW364-368 deletion | MT-4 | >83.3
Fc1cccc(F)c1C1SCc2nc3ccccc3n21 | cytopathic effect | - | RT-Y181C | CEM | 9.93
Cc1c(Cc2c(F)cccc2F)nc(SCc2ccc(C(C)C)cc2)[nH]c1=O | cytopathic effect / MTT | - | RT-Y188L | MT-4 | >106.9
CCc1cc(NCc2nc3c(Cl)ccc(Cl)c3o2)c(=O)[nH]c1C | p24 | NL4-3 | RT-Y188L | MT-4 | >30
Cc1cc(C)cc(Cc2c(CC(C)C)c(C)[nH]c(=O)c2N(C)C)c1 | cytopathic effect / MTT | Recombinant | RT-Y181C | MT-4 | 78.7
O=c1[nH]cnc2c1ncn2[C@H]1CC[C@@H](CO)O1 | luciferase | Recombinant | RT-V118I M184V | HeLa | 2.2
O=S(=O)(c1ccccc1)c1ccccc1 | cytopathic effect / XTT | UC82-R (RT-Y181C) | RT-Y181C | CEM + CEM-SS | >16.3
Nc1ccn([C@H]2CC[C@@H](CO)O2)c(=O)n1 | p24 | LAI | RT-K65R | MT-2 | 3.1
COC(=O)NCCC(C)(C)CN(C[C@@H](O)[C@H](Cc1ccccc1)NC(=O)O[C@H]1CO[C@H]2OCC[C@H]21)S(=O)(=O)c1ccc2c(c1)OCO2 | cytopathic effect / propidium iodide | Multi-PI-resistant EP13 | PR-M46I L63P A71V V82F/L I84V | MT-4 | 15.7
Nc1ccn([C@H]2C=C[C@@H](CO)O2)c(=O)n1 | plaque count | HXB2 | RT-L74V | CD4+HELA + HeLa | 0.88
O=c1[nH]cnc2c1ncn2[C@H]1CC[C@@H](CO)O1 | cytopathic effect / MTT | EFV-resistant (RT K103R V179D P225H) | RT-K103R V179D P225H | MT-4 | 0.12
CNC(=O)NCCCC(C)(C)CN(C[C@@H](O)[C@H](Cc1ccccc1)NC(=O)O[C@H]1CO[C@H]2OCC[C@H]21)S(=O)(=O)c1ccc2c(c1)OCO2 | cytopathic effect / propidium iodide | Multi-PI-resistant EP13 | PR-M46I L63P A71V V82F/L I84V | MT-4 | 2.89
Cn1c2ccccc2c2c1cc(C#N)c(=O)n2-c1ccc([N+](=O)[O-])cc1 | luciferase | NRTI resistant | RT-M184V | HeLa | 3
N#Cc1ccc(Nc2nc(N)nc(Oc3c(Cl)cccc3Cl)n2)cc1 | cytopathic effect / MTT | NNRTI-resistant (RT Y188L) | RT-Y188L | MT-4 | 1066
COc1cc(CN2CCCNCCNCCCNCC2)c(OC)cc1CN1CCCNCCNCCCNCC1 | cytopathic effect / MTT | NL4-3 | AMD3100-resistant | MT-4 | 12
CC(C)OC(=O)OCOP(=O)(CO[C@H](C)Cn1cnc2c(N)ncnc21)OCOC(=O)OC(C)C | p24 | N119 (NNRTI-resistant RT Y181C) | RT-Y181C | MT-2 | 0.0474
c1ccc2c(CN3CCCNCCNCCCNCC3)cc(CN3CCCNCCNCCCNCC3)cc2c1 | cytopathic effect / MTT | NL4-3 | AMD3100-resistant | MT-4 | >125
O=c1[nH]cnc2c1ncn2[C@H]1CC[C@@H](CO)O1 | p24 / ELISA | HXB2D (RT-K65R) | RT-K65R | PBMC | 5
O=P(O)(O)Cc1cc2c(O)c(c1)Sc1cc(CP(=O)(O)O)cc(c1O)Sc1cc(CP(=O)(O)O)cc(c1O)Sc1cc(CP(=O)(O)O)cc(c1O)S2 | luciferase | - | integrase inhibitor resistance mutation | TZM-bl + MT-2 | 1.3
Clc1cc(CN2CCCNCCNCCCNCC2)c(Cl)cc1CN1CCCNCCNCCCNCC1 | cytopathic effect / MTT | NL4-3 | AMD3100-resistant | MT-4 | 18.9

The last 4 rows once more:

structure	method	strain or isolate	changes	cells	result
c1ccc2c(CN3CCCNCCNCCCNCC3)cc(CN3CCCNCCNCCCNCC3)cc2c1	cytopathic effect / MTT	NL4-3	AMD3100-resistant	MT-4	>125
O=c1[nH]cnc2c1ncn2[C@H]1CC[C@@H](CO)O1	p24 / ELISA	HXB2D (RT-K65R)	RT-K65R	PBMC	5
O=P(O)(O)Cc1cc2c(O)c(c1)Sc1cc(CP(=O)(O)O)cc(c1O)Sc1cc(CP(=O)(O)O)cc(c1O)Sc1cc(CP(=O)(O)O)cc(c1O)S2	luciferase	-	integrase inhibitor resistance mutation	TZM-bl + MT-2	1.3
Clc1cc(CN2CCCNCCNCCCNCC2)c(Cl)cc1CN1CCCNCCNCCCNCC1	cytopathic effect / MTT	NL4-3	AMD3100-resistant	MT-4	18.9